Tests used:
[1] = system: P. falciparum C235; experiment: Malaria SYBR Green Fluorescence Assay, C235 strain; assay type: cell-based, Plasmodium falciparum
[2] = system: P. falciparum W2; experiment: Malaria SYBR Green Fluorescence Assay, W2 strain; assay type: cell-based, Plasmodium falciparum
[3] = system: P. falciparum D6; experiment: Malaria SYBR Green Fluorescence Assay, D6 strain; assay type: cell-based, Plasmodium falciparum
[4] = system: P. berghei; experiment: Thompson Test, in vivo mouse malaria assay; parameters: species or system mice (ICR strain); settings: (80 × 3): 80 mg/kg for 3 days

Substance	C235 (SYBR Green Assay IC50) [1]	W2 (SYBR Green Assay IC50) [2]	D6 (SYBR Green Assay IC50) [3]	In vivo Results Thompson Assay (n/N Cures or Suppressive) [4]
CC(C)(CNc1nc(nc(n1)C(Cl)(Cl)Cl)c2ccc(cc2)S(═O)(═O)C)CN3CCCCCC3	0.609 µg/mL	0.196 µg/mL	0.338 µg/mL	–
CN1CCN(CC1)c2ccc(Nc3nc(nc(n3)C(Cl)(Cl)Cl)c4ccc(cc4)S(═O)(═O)C)cc2	0.033 µg/mL	0.018 µg/mL	0.03 µg/mL	(80 × 3) Suppressive

— patent publication US9334246B2, “Substituted triazines for malaria treatment and chemoprophylaxis” (The United States of America, as represented by the …, priority 2013, dated 2016)
